Measurements from US20160213647A1, “COMPOSITIONS AND METHODS FOR INHIBITING VIRAL INFECTION” (priority 2015, published 2016).

Columns and labels:
HIV-1 isolate A17 = details: A17 in PBMCs
[1] = test system: HIV-1 isolate NL4-3 gp41 (36G) V42T, N43K; details: N43K in PBMCs

Row | Molecule | TI (TC50/TC50) (HIV-1 isolate 4736_4) | TI (TC50/TC50) [1] | TI (TC50/TC50) (HIV-1 isolate MDR807) | TI (TC50/TC50) (HIV-1 isolate NL4-3) | further results
1 | NCC(=O)Nc1ccc(-n2nc(C(F)(F)F)cc2-c2ccc3c(ccc4ccccc43)c2)cc1 [AR-12, 2-amino-N-(4-(5-(phenanthren-2-yl)-3-(trifluoromethyl)-1H-pyrazol-1-yl)phenyl)acetamide] | 7.26 | 5.45 | – | – | TI (TC50/TC50) (HIV-1 isolate A17): 6.05; TI (TC50/TC50) (HIV-1 isolate MDR807; MDR807 in PBMCs): 6.12; TI (TC50/TC50) (HIV-1 isolate 1022-48): 11.3; TI (TC50/TC50) (HIV-1 isolate MDR769): 6.53; TI (TC50/TC50) (HIV-1 isolate NL4-3; NL4-3 in PBMCs): 7.39
2 | Cc1cn([C@H]2C[C@H](N=[N+]=[N-])[C@@H](CO)O2)c(=O)[nH]c1=O [AZT, azidothymidine] | >389 | >90.1 | >6.17 | >100 | TI (TC50/TC50) (HIV-1 isolate A17): >86.0
3 | CC(C)Nc1cccnc1N1CCN(C(=O)c2cc3cc(NS(C)(=O)=O)ccc3[nH]2)CC1 [Delavirdine] | – | – | – | >65.5 | –
4 | COc1cc2c(cc1Cc1cccc(Cl)c1F)c(=O)c(C(=O)O)cn2[C@H](CO)C(C)C [Elvitegravir] | >12.2 | – | – | >1,935 | –
5 | Cc1ccnc2c1NC(=O)c1cccnc1N2C1CC1 [Nevirapine] | – | – | – | >133 | TI (TC50/TC50) (HIV-1 isolate 1022-48): 142
6 | Cc1nnc(C(=O)NC(C)(C)c2nc(C(=O)NCc3ccc(F)cc3)c(O)c(=O)n2C)o1 [Raltegravir, raltegravir] | >1.34 | – | >219 | >77.0 | TI (TC50/TC50) (HIV-1 isolate MDR769): 27.4
7 | CC(C)c1nc(CN(C)C(=O)N[C@H](C(=O)N[C@@H](Cc2ccccc2)C[C@H](O)[C@H](Cc2ccccc2)NC(=O)OCc2cncs2)C(C)C)cs1 [Ritonavir, ritonavir] | – | – | >7.81 | >220 | –
8 | enfuvirtide | – | >3.10 | – | >15.0 | –

Where two headings read alike, the source gives them in different places.
